Pooled drug test results. Numbers come from NIAID ChemDB, via PubChem.

Common to all: growth or infection tests; species: Mycobacterium kansasii; read-out: MIC

An empty or dashed field is not shown.

structure,strain or isolate,method,conditions,value
C[C@@H](NC(=O)OCc1ccccc1)c1cnc(-c2ccccc2)[nH]1,My 6509/96,-,14 d,125 µM
O=C(Oc1ccc(Cl)cc1C(=O)Nc1ccc(F)cc1)c1cnccn1,235/80,-,14 d,8 µM
Fc1ccc2oc(=S)n(-c3ccc(Cl)c(Cl)c3)c(=S)c2c1,6509/96,-,21 d,2 µM
O=C(Oc1cc(Cl)ccc1C(=O)Nc1cccc(Cl)c1)c1ccccc1,6509/96,broth dilution,14 d,4 µM
Fc1ccc2oc(=S)n(-c3ccc(Br)cc3)c(=S)c2c1,6509/96,-,14 d,2 µM
O=C(Oc1cc(Cl)ccc1C(=O)Nc1cccc(F)c1)c1cnccn1,6509/96,-,21 d,8 µM
N/C(=N\N=C\c1ccccc1)SCc1ccccc1,ATCC 12478,broth dilution,21 d,62.5 µM
COc1ccc2oc(=O)n(-c3ccc(F)cc3)c(=S)c2c1,6509/96,-,14 d,16 µM
O=C(N[C@@H](Cc1ccccc1)c1cnc(-c2ccccc2)[nH]1)OCc1ccccc1,My 235/80,-,7 d,>250 µM
O=c1oc2ccc(F)cc2c(=S)n1-c1cccc(Cl)c1,6509/96,-,21 d,1 µM
O=C(Nc1cccc(Br)c1)c1ccc(Cl)cc1OS(=O)(=O)c1ccccc1,6509/96,-,7 d,32 µM
COc1ccc2oc(=S)n(-c3ccc(C(F)(F)F)cc3)c(=S)c2c1,6509/96,-,14 d,32 µM
O=C(Nc1cccc(F)c1)c1ccc(Cl)cc1OS(=O)(=O)c1ccccc1,235/80,-,14 d,32 µM
O=C(NC1CCCCC1)N(C(=O)c1cnccn1)C1CCCCC1,235/80,-,14 d,>500 µM
O=C(Oc1ccc(Cl)cc1C(=O)Nc1ccc(Br)cc1)c1ccccc1,235/80,broth dilution,7 d,2 µM
N/C(=N\N=C\c1cc(Br)ccc1O)SCc1ccc(C(F)(F)F)cc1,6509/96,broth dilution,14 d,32 µM
O=C(Oc1ccc(Cl)cc1C(=O)Nc1cccc(Cl)c1)c1ccccc1,6509/96,broth dilution,14 d,4 µM
C[C@H](NC(=O)OCc1ccccc1)c1cnc(-c2ccc([N+](=O)[O-])cc2)[nH]1,My 235/80,-,21 d,>125 µM
N/C(=N\N=C\c1ccccc1O)SCc1ccc(Br)cc1,ATCC 12478,broth dilution,14 d,32 µM
C[C@H](NC(=O)OCc1ccccc1)c1cnc(-c2ccccc2)[nH]1,My 235/80,-,7 d,125 µM
Cc1ccc(-n2c(=O)oc3ccc(F)cc3c2=S)cc1,6509/96,-,14 d,1 µM
O=C(Nc1ccc(F)cc1)c1ccc(Cl)cc1OS(=O)(=O)c1ccccc1,6509/96,-,7 d,16 µM
COc1cccc(CS/C(N)=N/N=C/c2cc(Cl)ccc2O)c1,ATCC 12478,broth dilution,14 d,32 µM
C[C@@H](NC(=O)OCc1ccccc1)c1cnc(-c2ccc([N+](=O)[O-])cc2)[nH]1,My 6509/96,-,21 d,>125 µM
O=C(Oc1cc(Cl)ccc1C(=O)Nc1ccc(Br)cc1)c1ccccc1,235/80,broth dilution,7 d,2 µM
O=C(Nc1ccc(Cl)c(Cl)c1)c1cc(Cl)ccc1OS(=O)(=O)c1ccccc1,6509/96,-,-,8 µM
O=C(Oc1cc(Cl)ccc1C(=O)Nc1ccc(Cl)cc1)c1ccccc1,235/80,broth dilution,14 d,2 µM
O=C(Oc1cc(Cl)ccc1C(=O)Nc1ccc(Cl)cc1)c1cnccn1,6509/96,-,14 d,2 µM
CC[C@@H](C)[C@H](NC(=O)OCc1ccccc1)c1cnc(-c2ccccc2)[nH]1,My 235/80,-,7 d,32 µM
O=C(Oc1cc(Cl)ccc1C(=O)Nc1ccc(F)cc1)c1cnccn1,6509/96,-,14 d,4 µM
O=C(Nc1ccc(C(F)(F)F)cc1)c1cc(Cl)ccc1OS(=O)(=O)c1ccccc1,6509/96,-,14 d,125 µM
Fc1ccc(-n2c(=S)oc3ccc(Cl)cc3c2=S)cc1,6509/96,-,21 d,8 µM
O=C(Oc1cc(Cl)ccc1C(=O)Nc1ccc(F)cc1)c1ccccc1,235/80,broth dilution,14 d,4 µM

A second listing of 5 rows from above:

structure | strain or isolate | method | conditions | value
COc1ccc2oc(=S)n(-c3ccc(C(F)(F)F)cc3)c(=S)c2c1 | 6509/96 | - | 14 d | 32 µM
O=C(Nc1cccc(F)c1)c1ccc(Cl)cc1OS(=O)(=O)c1ccccc1 | 235/80 | - | 14 d | 32 µM
O=C(Oc1cc(Cl)ccc1C(=O)Nc1ccc(Cl)cc1)c1ccccc1 | 235/80 | broth dilution | 14 d | 2 µM
O=C(Oc1cc(Cl)ccc1C(=O)Nc1ccc(Cl)cc1)c1cnccn1 | 6509/96 | - | 14 d | 2 µM
O=C(Oc1cc(Cl)ccc1C(=O)Nc1ccc(F)cc1)c1ccccc1 | 235/80 | broth dilution | 14 d | 4 µM

Rows are shuffled and stem from different studies.